The target in experiment [1] is CgBdf1 BD2 (Candida glabrata, UniProt Q6FWV7).
Experiment [2] relates to CgBdf1 BD2. Conditions: for Normalized (0 to 100%), WT, Average / Raw data, WT, Left / Raw data, WT, Rigt: CgBdf1 BD2 WT; for Normalized (0 to 100%), WT, Average / Normalized (0 to 100%), YF mutant, Average: normalized peptide array signal; for Raw data, WT, Left / Raw data, WT, Rigt / Raw data, YF mutant, Left / Raw data, YF mutant, Right: peptide array signal; for Raw data, WT, Left / Raw data, YF mutant, Left: left replicate; for Raw data, WT, Rigt / Raw data, YF mutant, Right: right replicate; for Normalized (0 to 100%), YF mutant, Average / Raw data, YF mutant, Left / Raw data, YF mutant, Right: CgBdf1 BD2 YF mutant.

Amino acid sequences for entries named in this document (tags omitted). Residues count along the entry.
UniProt Q6FWV7, 100-228 limits assumed: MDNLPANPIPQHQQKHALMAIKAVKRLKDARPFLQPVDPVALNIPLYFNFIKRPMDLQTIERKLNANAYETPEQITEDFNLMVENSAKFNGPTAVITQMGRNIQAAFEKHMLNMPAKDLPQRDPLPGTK
UniProt Q6FWV7, 269-391 limits assumed: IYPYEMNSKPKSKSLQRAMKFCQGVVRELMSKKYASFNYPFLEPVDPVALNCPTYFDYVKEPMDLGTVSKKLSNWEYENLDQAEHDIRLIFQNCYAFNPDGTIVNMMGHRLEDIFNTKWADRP

Experiment [3] has as its system CgBdf1 BD1. Conditions: for Normalized (0 to 100%), WT, Average / Raw data, WT, Left / Raw data, WT, Rigt: CgBdf1 BD1 WT; for Normalized (0 to 100%), WT, Average / Normalized (0 to 100%), YF mutant, Average: normalized peptide array signal; for Raw data, WT, Left / Raw data, WT, Rigt / Raw data, YF mutant, Left / Raw data, YF mutant, Right: peptide array signal; for Raw data, WT, Left / Raw data, YF mutant, Left: left replicate; for Raw data, WT, Rigt / Raw data, YF mutant, Right: right replicate; for Normalized (0 to 100%), YF mutant, Average / Raw data, YF mutant, Left / Raw data, YF mutant, Right: CgBdf1 BD1 YF mutant.

Experiment [4] has as its system C. glabrata strains expressing WT and mutant Bdf1. In words: Growth inhibition in liquid media, C. glabrata lab strains. Conditions: Exp 1-3, Figure S9A.
Experiment [5] deals with CgBdf1 BD1 (Candida glabrata, UniProt Q6FWV7). In words: HTRF assay, inhibition of H4ac4 peptide binding. On the set-up: species or system C. glabrata. Conditions: for pIC50 CgBD1: Fig 1D/2A original data, single experiments Exp1-3. Background: In TR-FRET formats the signal depends on donor and acceptor labels being close together.
The mark [6] stands for this setting: CgBD2, individual experiments Exp1-3, Table S4.
[7] abbreviates: CgBD1, individual experiments Exp1-3, Table S4.
Setting [8] is: read-out: IC50 CgBD1, Table S4, means ± SD, n=3.
Where [9] appears, read: read-out: IC50 CgBdf1 BD1, Table S3, estimate, preliminary single-replicate HTRF assay.

Where “and” joins values, the source holds several entries; their conditions need not be identical. Equal entries are not always repeated. Where two headings read alike, the source gives them in different places. Some results are limits rather than exact numbers.

For the compound `COc1cccc(NC(=O)Cn2ccc3ccc(-c4nnc(C)o4)cc32)c1`, the IC50 is above 20000 nM at CgBdf1 BD2 [1] (setting [6]); 4220 nM and 930 nM and 4100 nM on CgBdf1 BD1 [5] (setting [7]); 3080 nM on CgBdf1 BD1 [5] (setting [8]); 4200 nM on CgBdf1 BD1 [5] (setting [9]). Moreover, the results for the “Normalized (0 to 100%), WT, Average” value in the experiment with CgBdf1 BD2 [2] and in the experiment on CgBdf1 BD1 [3] were 0.671% and 4.62%, respectively. For the same compound, the “Raw data, WT, Left” value with CgBdf1 BD2 [2] is reported as 0.004991; in the experiment on CgBdf1 BD1 [3] it was 0.007876. The “Raw data, WT, Rigt” value came out at 0.008422 in the experiment on CgBdf1 BD2 [2] and 0.08444 in the experiment with CgBdf1 BD1 [3]. The “Normalized (0 to 100%), YF mutant, Average” value in the experiment on CgBdf1 BD2 [2] turned out to be 0.429%; in the experiment on CgBdf1 BD1 [3] it was 0.416%. In addition, the “Raw data, YF mutant, Left” value with CgBdf1 BD2 [2] came to 0.004294; with CgBdf1 BD1 [3], 0.003393. The “Raw data, YF mutant, Right” value with CgBdf1 BD2 [2] is 0.004294; in the experiment with CgBdf1 BD1 [3] it was 0.004935. Also, the “OD at 600 nm” value is 0.5484 and 0.5614 and 0.5754 in experiment [4] (WT BDF1 strain); 0.2991 and 0.3141 and 0.2971 in experiment [4] (bdf1-bd1Δ strain); 0.1001 and 0.0951 and 0.1091 in experiment [4] (bdf1-bd2Δ strain).
For the compound `CCC(C)NC(=O)Nc1cc2c(cc1Oc1ccccc1)n(C)c(=O)n2C` (stereo not shown), the IC50 is 1120 nM and 680 nM and 1100 nM at CgBdf1 BD2 [1] (setting [6]); 970 nM on CgBdf1 BD2 [1] (read-out: IC50 CgBD2, Table S4, means ± SD, n=3); 4400 nM and 4660 nM and 5850 nM at CgBdf1 BD1 [5] (setting [7]); 4970 nM on CgBdf1 BD1 [5] (setting [8]). For the same compound, on CgBdf1 BD2 [1] (Fig 1D/2A original data, single experiments Exp1-3), the “pIC50 CgBD2” value was 5.950 and 6.168 and 5.958. For the same compound, the figures for the “Normalized (0 to 100%), WT, Average” value in the experiment on CgBdf1 BD2 [2] and in the experiment with CgBdf1 BD1 [3] were 0.686% and 1.42%, respectively. For the same compound, the “Raw data, WT, Left” value in the experiment on CgBdf1 BD2 [2] was determined as 0.00811; in the experiment with CgBdf1 BD1 [3] it was 0.007246. For the same compound, the “Raw data, WT, Rigt” value in the experiment with CgBdf1 BD2 [2] is reported as 0.005614; with CgBdf1 BD1 [3], 0.02111. For the same compound, the “Normalized (0 to 100%), YF mutant, Average” value is 1% with CgBdf1 BD2 [2] and 0.494% in the experiment on CgBdf1 BD1 [3]. Further, the entries for the “Raw data, YF mutant, Left” value in the experiment on CgBdf1 BD2 [2] and in the experiment with CgBdf1 BD1 [3] were 0.01656 and 0.006786, respectively. The “Raw data, YF mutant, Right” value in the experiment with CgBdf1 BD2 [2] is 0.004294; in the experiment with CgBdf1 BD1 [3], 0.003085. Besides, the “OD at 600 nm” value was 0.5373 and 0.5303 and 0.5753 in experiment [4] (WT BDF1 strain); 0.2883 and 0.3133 and 0.2963 in experiment [4] (bdf1-bd1Δ strain); 0.2283 and 0.1973 and 0.2093 in experiment [4] (bdf1-bd2Δ strain). Also, the “pIC50 CgBD1” value at CgBdf1 BD1 [5] is 5.356 and 5.332 and 5.233.
As for `COC(=O)c1ccc(NC(=O)C2CC(=O)N(c3ccc4c(c3)CCN4C(C)=O)C2)cc1` (stereo not shown), the IC50 against CgBdf1 BD2 [1] (setting [6]) was above 20000 nM. In the experiment on CgBdf1 BD2 [2], the “Normalized (0 to 100%), WT, Average” value was 1.15%; the “Raw data, WT, Left” value came out at 0.009046; the “Raw data, WT, Rigt” value came out at 0.01404; the “Normalized (0 to 100%), YF mutant, Average” value was 0.859%. In the experiment with CgBdf1 BD2 [2], the “Raw data, YF mutant, Left” value turned out to be 0.01319 and the “Raw data, YF mutant, Right” value came to 0.003988. Further, in the experiment with CgBdf1 BD1 [3], the “Normalized (0 to 100%), WT, Average” value stood at 2.19%; the “Raw data, WT, Left” value was determined as 0.0189; the “Raw data, WT, Rigt” value worked out at 0.02489; the “Normalized (0 to 100%), YF mutant, Average” value stood at 0.293%. In addition, in the experiment with CgBdf1 BD1 [3], the “Raw data, YF mutant, Left” value is recorded as 0.003393 and the “Raw data, YF mutant, Right” value is recorded as 0.002468. Also, the “OD at 600 nm” value in experiment [4] (WT BDF1 strain) was 0.5050 and 0.5110 and 0.4890. Moreover, the “OD at 600 nm” value in experiment [4] (bdf1-bd1Δ strain) was 0.2830 and 0.2710 and 0.2820. Moreover, the “OD at 600 nm” value in experiment [4] (bdf1-bd2Δ strain) is 0.1760 and 0.1750 and 0.1620. Further, the IC50 at CgBdf1 BD1 [5] (setting [7]) is 110 nM and 70 nM and 130 nM. Further, the “pIC50 CgBD1” value on CgBdf1 BD1 [5] is 6.943 and 7.167 and 6.872. In addition, at CgBdf1 BD1 [5] (setting [8]), the IC50 was determined as 100 nM.
Take `CCCN(CC1CC1)C(=O)C1C(c2cc(OC)c(OC)c(OC)c2)c2cc3c(cc2C(O)C1CO)OCO3` (stereo not shown): the IC50 against CgBdf1 BD2 [1] (setting [6]) was above 20000 nM. Also, in the experiment on CgBdf1 BD2 [2], the “Normalized (0 to 100%), WT, Average” value was 4%; the “Raw data, WT, Left” value is 0.02464; the “Raw data, WT, Rigt” value amounted to 0.05864; the “Normalized (0 to 100%), YF mutant, Average” value is on record as 0.506%. In the experiment on CgBdf1 BD2 [2], the “Raw data, YF mutant, Left” value is 0.007055 and the “Raw data, YF mutant, Right” value came to 0.003067. In the experiment on CgBdf1 BD1 [3], the “Normalized (0 to 100%), WT, Average” value is on record as 12%; the “Raw data, WT, Left” value was 0.08412; the “Raw data, WT, Rigt” value is recorded as 0.1582; the “Normalized (0 to 100%), YF mutant, Average” value is given as 0.308%. For the same compound, in the experiment with CgBdf1 BD1 [3], the “Raw data, YF mutant, Left” value worked out at 0.003085 and the “Raw data, YF mutant, Right” value stood at 0.003085. Also, the “OD at 600 nm” value in experiment [4] (WT BDF1 strain) is 0.5473 and 0.5133 and 0.5203. Also, the “OD at 600 nm” value in experiment [4] (bdf1-bd1Δ strain) is 0.2310 and 0.2520 and 0.2400. The “OD at 600 nm” value in experiment [4] (bdf1-bd2Δ strain) was 0.1463 and 0.1553 and 0.1533. The concentration for half-maximal inhibition (IC50) at CgBdf1 BD1 [5] (setting [7]) is 360 nM and 220 nM and 560 nM. Moreover, the IC50 at CgBdf1 BD1 [5] (setting [8]) came out at 380 nM.
Turning to `CC(=O)Nc1ccc(CCc2nc3ccc(C(=O)NCc4ccc(C)o4)cc3[nH]2)cc1`, the IC50 on CgBdf1 BD2 [1] (read-out: IC50 CgBdf1 BD2, Table S3, estimate, preliminary single-replicate HTRF assay) is 17000 nM. In the experiment on CgBdf1 BD2 [2], the “Normalized (0 to 100%), WT, Average” value was 0.764%; the “Raw data, WT, Left” value came out at 0.00811; the “Raw data, WT, Rigt” value amounted to 0.007174; the “Normalized (0 to 100%), YF mutant, Average” value was 1.18%. In the experiment with CgBdf1 BD2 [2], the “Raw data, YF mutant, Left” value is 0.01718 and the “Raw data, YF mutant, Right” value turned out to be 0.006442. Further, in the experiment with CgBdf1 BD1 [3], the “Normalized (0 to 100%), WT, Average” value is recorded as 1.83%; the “Raw data, WT, Left” value came out at 0.01323; the “Raw data, WT, Rigt” value was found to be 0.02331; the “Normalized (0 to 100%), YF mutant, Average” value was found to be 0.339%. Moreover, in the experiment with CgBdf1 BD1 [3], the “Raw data, YF mutant, Left” value was 0.003701 and the “Raw data, YF mutant, Right” value worked out at 0.003085. At CgBdf1 BD1 [5] (setting [9]), the IC50 is 5900 nM.

As usually defined, the IC50 is the concentration that inhibits the measured activity by half.

(Values after paper PMC11904993, “Humanized Candida and NanoBiT Assays Expedite Discovery of Bdf1 Bromodomain Inhibitors With Antifungal Potential” (Advanced Science, 2025).)
